Experimental data as given in paper PMC12474298.

Columns and labels:
[1] = biological target: human importin α3 lacking the importin-β binding domain (hIMPα3ΔIBB); assay: FP assay; settings: parent: 192.86 nM
[2] = biological target: human importin α1 lacking the importin-β binding domain (hIMPα1ΔIBB); assay: FP assay; settings: parent: 225.68 nM

## HaHV1 UL36h NLS peptide (residues 1491-1500), FITC/Ahx-labelled R1495A
[1]
  Kd: 4.2 µM
[2]
  Kd: 5.86 µM
